Biological target: the compound of Formula IV

Protein | resistance to compound-induced cleavage
MtbGyrase with MtbGyrAP353L (protein) chain 1: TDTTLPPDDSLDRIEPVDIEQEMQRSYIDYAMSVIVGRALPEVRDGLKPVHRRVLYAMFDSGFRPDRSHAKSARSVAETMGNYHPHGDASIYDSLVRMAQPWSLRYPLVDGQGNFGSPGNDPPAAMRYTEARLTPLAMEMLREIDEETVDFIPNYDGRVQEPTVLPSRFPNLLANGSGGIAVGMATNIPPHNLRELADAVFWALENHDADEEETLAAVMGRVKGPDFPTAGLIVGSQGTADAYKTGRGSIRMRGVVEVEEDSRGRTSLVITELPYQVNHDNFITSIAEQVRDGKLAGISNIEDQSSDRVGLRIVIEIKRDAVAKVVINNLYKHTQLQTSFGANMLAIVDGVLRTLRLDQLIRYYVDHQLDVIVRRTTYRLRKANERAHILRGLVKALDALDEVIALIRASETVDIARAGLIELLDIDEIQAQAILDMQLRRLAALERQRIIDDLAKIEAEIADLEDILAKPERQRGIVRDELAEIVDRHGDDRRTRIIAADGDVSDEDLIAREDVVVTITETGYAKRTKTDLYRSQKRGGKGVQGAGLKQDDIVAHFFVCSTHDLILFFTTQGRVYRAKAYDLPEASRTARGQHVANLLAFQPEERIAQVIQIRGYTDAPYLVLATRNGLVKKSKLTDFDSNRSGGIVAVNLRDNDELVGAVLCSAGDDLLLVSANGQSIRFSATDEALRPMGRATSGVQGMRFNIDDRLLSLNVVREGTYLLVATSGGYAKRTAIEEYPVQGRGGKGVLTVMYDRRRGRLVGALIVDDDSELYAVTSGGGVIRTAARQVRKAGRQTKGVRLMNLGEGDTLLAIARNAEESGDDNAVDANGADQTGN chain 2: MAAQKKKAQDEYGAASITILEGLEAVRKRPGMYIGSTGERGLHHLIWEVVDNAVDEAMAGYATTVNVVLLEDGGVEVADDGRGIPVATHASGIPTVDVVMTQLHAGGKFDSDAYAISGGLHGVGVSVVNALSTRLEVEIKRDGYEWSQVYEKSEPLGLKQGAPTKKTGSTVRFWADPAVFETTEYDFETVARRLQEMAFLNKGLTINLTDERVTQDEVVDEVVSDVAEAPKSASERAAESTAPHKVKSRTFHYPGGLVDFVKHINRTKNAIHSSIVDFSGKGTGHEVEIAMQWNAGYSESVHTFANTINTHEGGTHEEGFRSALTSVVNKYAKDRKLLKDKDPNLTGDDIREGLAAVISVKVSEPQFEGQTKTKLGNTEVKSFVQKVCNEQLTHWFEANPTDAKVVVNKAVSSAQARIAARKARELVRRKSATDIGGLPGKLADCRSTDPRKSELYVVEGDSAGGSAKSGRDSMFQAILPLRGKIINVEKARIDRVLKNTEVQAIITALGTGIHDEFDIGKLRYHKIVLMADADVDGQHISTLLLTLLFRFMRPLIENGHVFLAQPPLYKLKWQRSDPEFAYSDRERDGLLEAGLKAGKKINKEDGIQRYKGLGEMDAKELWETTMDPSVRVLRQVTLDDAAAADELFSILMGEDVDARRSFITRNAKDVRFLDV | showed relatively strong resistance against the compound of Formula IV
MtbGyrase with MtbGyrAA32V (protein) chain 1: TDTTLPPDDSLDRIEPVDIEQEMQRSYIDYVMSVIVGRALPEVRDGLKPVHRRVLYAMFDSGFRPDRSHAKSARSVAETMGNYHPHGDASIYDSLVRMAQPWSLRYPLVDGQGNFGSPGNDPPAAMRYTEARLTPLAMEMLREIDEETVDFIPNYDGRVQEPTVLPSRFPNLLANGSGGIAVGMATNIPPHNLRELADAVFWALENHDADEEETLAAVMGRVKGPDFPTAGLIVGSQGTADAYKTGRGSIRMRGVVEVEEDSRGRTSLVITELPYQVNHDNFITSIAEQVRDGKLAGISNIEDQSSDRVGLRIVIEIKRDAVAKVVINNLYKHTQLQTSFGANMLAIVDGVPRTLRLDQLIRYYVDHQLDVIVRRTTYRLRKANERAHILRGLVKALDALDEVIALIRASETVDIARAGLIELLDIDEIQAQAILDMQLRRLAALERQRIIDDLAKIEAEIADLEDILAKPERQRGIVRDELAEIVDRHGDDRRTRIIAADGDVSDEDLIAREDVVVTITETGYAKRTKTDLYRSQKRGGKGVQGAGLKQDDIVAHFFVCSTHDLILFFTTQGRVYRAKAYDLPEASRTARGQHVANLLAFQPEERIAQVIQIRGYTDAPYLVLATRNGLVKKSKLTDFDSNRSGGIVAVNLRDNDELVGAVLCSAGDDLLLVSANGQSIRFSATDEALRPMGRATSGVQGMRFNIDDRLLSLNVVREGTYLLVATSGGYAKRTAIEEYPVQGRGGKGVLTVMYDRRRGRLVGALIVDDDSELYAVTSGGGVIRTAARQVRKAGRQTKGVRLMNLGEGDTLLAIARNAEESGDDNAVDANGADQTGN chain 2: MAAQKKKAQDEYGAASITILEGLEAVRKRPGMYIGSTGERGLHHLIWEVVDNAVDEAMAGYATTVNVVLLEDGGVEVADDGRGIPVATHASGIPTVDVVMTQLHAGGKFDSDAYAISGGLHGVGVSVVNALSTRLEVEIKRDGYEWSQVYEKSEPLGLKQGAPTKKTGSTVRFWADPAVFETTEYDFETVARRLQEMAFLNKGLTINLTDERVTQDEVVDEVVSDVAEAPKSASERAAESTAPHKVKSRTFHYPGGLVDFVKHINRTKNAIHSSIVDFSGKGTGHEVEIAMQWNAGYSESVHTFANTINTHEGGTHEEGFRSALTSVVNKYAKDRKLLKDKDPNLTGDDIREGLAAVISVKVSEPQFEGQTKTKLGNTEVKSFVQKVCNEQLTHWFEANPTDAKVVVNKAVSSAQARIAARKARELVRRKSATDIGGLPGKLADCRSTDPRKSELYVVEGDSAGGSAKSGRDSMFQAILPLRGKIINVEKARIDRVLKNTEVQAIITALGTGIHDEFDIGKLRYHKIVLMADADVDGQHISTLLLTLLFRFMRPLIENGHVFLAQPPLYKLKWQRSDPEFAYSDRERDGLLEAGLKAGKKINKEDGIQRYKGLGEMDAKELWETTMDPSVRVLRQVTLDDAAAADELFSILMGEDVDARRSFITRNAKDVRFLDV | showed relatively strong resistance against the compound of Formula IV

From patent publication US20240287139
